# Literature values, collected in publication PMC11793105, “A kalihinol analog disrupts apicoplast function and vesicular trafficking in P. falciparum malaria” (Science (New York, N.Y.), 2024).
# Where “and” joins values, the source holds several entries; their conditions need not be identical. Equal values may be shown once.
# System: Endoplasmin (PF3D7_1222300)
# Details: pyrimethamine 100uM, replicates r1 and r2; ref Dziekan et al 2020; cited from earlier work
structure (smiles),measurement,value
"CCc1nc(N)nc(N)c1-c1ccc(Cl)cc1 [Pyr, pyrimethamine]",Tm of Endoplasmin,48.65 °C and 48.42 °C
